Anti-infective test results gathered from many reports (values: NIAID ChemDB through PubChem).

Common to all: tests in culture; species: HIV-1; cells: MT-4; read-out: EC50

a–b is a range or a potency band. Blank or dashed fields: not listed here. ECn: concentration that inhibits the pathogen or its effect by n%. Rows are shuffled and stem from different studies.

SMILES,strain or isolate,mutations,read by,result
O=C(/C=C/c1ccc(O)c(O)c1)Nc1ccc(S(=O)(=O)Nc2ccc(F)c(F)c2)cc1,,,,20 µM
Cc1cc(S(N)(=O)=O)ccc1NC(=O)COc1ccc(Cl)cc1C(=O)c1cc(Cl)cc(C#N)c1,Nevirapine-resistant (RT Y181C),RT-Y181C,cytopathic effect / propidium iodide,<0.01 µM
COc1cc(Cc2cnc(/N=C3\C(=O)N(CN4CCN(c5ccc(Cl)cc5)CC4)c4ccc(C)cc43)nc2N)cc(OC)c1OC,,,cytopathic effect,17.2 µM
CC1=C(C)[C@@H](O)[C@@H]2/C=C/C[C@H](C)C[C@@H](C)C(=O)c3ccc([nH]3)[C@]23C(=O)N[C@@H](Cc2c[nH]c4ccccc24)C13,LAI,,p24 / ELISA / antigen,0.25 µM
C[C@]1(CO)O[C@@H](n2ccc(N)nc2=O)[C@H](O)[C@@H]1O,IIIB,,,>100 µM
O=C(COc1ccc(Cl)cc1C(=O)c1ccccc1)Nc1ccc(-n2cncn2)cc1,IIIB,,cytopathic effect / propidium iodide,0.011–0.1 µM
O=c1c2ccccc2nc2sc(Nc3ccccc3)nn12,IIIB,,cytopathic effect / MTT,35.3 µg/mL
Cc1cc(C#N)cc(C)c1Oc1nc(NC2CCC(NCc3ccc(F)cc3)CC2)nc2ccsc12,IIIB,NNRTI-resistant (RT L100I),MTT,0.919 µM
O=C(NCCc1ccccc1)Nc1nc2ccc(F)cc2s1,,,cytopathic effect / XTT,<1 µg/mL
CCn1cc(C(=O)O)c(=O)c2c(F)c(N3CCN(CN4C(=O)/C(=N\c5ncc(Cc6cc(OC)c(OC)c(OC)c6)c(N)n5)c5cc(C)ccc54)C(C)C3)c(F)cc21,,,cytopathic effect,28.4 µM
Cc1cc(C#N)cc(C)c1Oc1nc(NC2CCN(Cc3ccc(S(C)(=O)=O)cc3)CC2)nc2sccc12,IIIB,NNRTI-resistant (RT Y181C),MTT,0.00596 µM
Cc1ccnc(NC(=O)NCCc2ccccc2)n1,,,cytopathic effect / XTT,<10 µg/mL
CN(C)c1ccc(/C=C/C(=O)C2CCC3C4CC=C5C[C@@H](O)CC[C@]5(C)C4CC[C@]23C)c(Cl)c1,IIIB,,MTT,>12.95 µM
CN1C(=O)[C@@H](Cc2ccccc2)NC1=S,,,RT activity,<100 µg/mL
CC(=O)Oc1ccc(/C=C/C(=O)Nc2ccc(S(=O)(=O)Nc3cc(C)cc(C)c3)cc2)cc1OC(C)=O,,,,>13 µM
CCc1c(Cc2cc(C)cc(C)c2)n(COCC#Cc2cccc(C=O)c2)c(=O)[nH]c1=O,IIIB,EFV-resistant (K103R V179D P225H),MTT,13 µM
C=C1[C@@H](C)C2[C@H](Cc3c[nH]c4ccccc34)NC(=O)[C@]23c2ccc([nH]2)C(=O)/C(C)=C/[C@@H](C)C/C=C/[C@H]3[C@@H]1O,LAI,,p24 / ELISA / antigen,4.92 µM
C[C@]12CCC3C(CC=C4CC(O)CC[C@@]43C)C1CCC2C1=NN(C(N)=S)C(c2ccc(C(F)(F)F)cc2)C1,IIIB,,MTT,>7.92 µM
C=CCn1cc(COCn2c(Cc3cc(C)cc(C)c3)c(CC)c(=O)[nH]c2=O)nn1,IIIB,Y181C,MTT,2.6 µM
O=C(NCCc1ccccc1)Nc1nncs1,,,cytopathic effect / XTT,<1 µg/mL
CC(=O)Oc1ccc(/C=C/C(=O)Nc2ccc(S(=O)(=O)Nc3ccc(Cl)c(Cl)c3)cc2)cc1OC(C)=O,,,,>20 µM
COc1cc(Cc2cnc(/N=C3\C(=O)N(CN4CCCCC4)c4ccc(C)cc43)nc2N)cc(OC)c1OC,,,cytopathic effect,>124.6 µM
Cc1cc(S(N)(=O)=O)ccc1NC(=O)COc1ccc(Cl)cc1C(=O)c1cc(C#N)cc(C#N)c1,Nevirapine-resistant (RT Y181C),RT-Y181C,cytopathic effect / propidium iodide,<0.01 µM
C[C@]12CCC3C(CC=C4CC(O)CC[C@@]43C)C1CCC2C(=O)/C=C/c1ccc(/C=C/C(=O)C2CCC3CCC4C(CC=C5C[C@@H](O)CC[C@@]54C)[C@]32C)cc1,IIIB,,MTT,>47.75 µM
O=C(COc1ccc(Cl)cc1C(=O)c1nccs1)Nc1ccccc1,Nevirapine-resistant (RT Y181C),RT-Y181C,cytopathic effect / propidium iodide,1–3 µM
Cc1cc(/C=C/C#N)cc(C)c1Oc1nc(NC2CCN(Cc3ccc(C#N)cc3)CC2)nc2ccsc12,IIIB,NNRTI-resistant (RT Y188L),MTT,0.0332 µM
CS(=O)(=O)Nc1ccc(NC(=O)COc2ccc(Cl)cc2C(=O)c2ccccc2)cc1,IIIB,,cytopathic effect / propidium iodide,<0.01 µM
Cc1cccc(Nc2nn3c(=O)c4ccccc4nc3s2)c1,IIIB,,cytopathic effect / MTT,40.65 µg/mL
Nc1nc2c(ncn2[C@@H]2O[C@H](CO)C(O)(C(F)(F)F)[C@H]2O)c(=O)[nH]1,,,,>100 µM
C[C@]1(CO)O[C@@H](n2cc(F)c(N)nc2=O)[C@H](O)[C@@H]1O,IIIB,,,>100 µM
Cc1cc(/C=C/C#N)cc(C)c1Oc1nc(NC2CCN(Cc3ccc(F)cc3)CC2)nc2ccsc12,IIIB,NNRTI-resistant (RT K103N),MTT,0.00638 µM
O=C(NCCc1ccccc1)Nc1ccccc1,,,cytopathic effect / XTT,>100 µg/mL
Cc1cc(S(N)(=O)=O)ccc1NC(=O)COc1ccc(Cl)cc1C(=O)c1cc(F)cc(F)c1,Nevirapine-resistant (RT Y181C),RT-Y181C,cytopathic effect / propidium iodide,<0.01 µM
CC(=O)Oc1cc(C(=O)Nc2ccc(S(=O)(=O)Nc3cccc(Cl)c3F)cc2)cc(OC(C)=O)c1OC(C)=O,,,,>25 µM
Cc1cc(/C=C/C#N)cc(C)c1Oc1nc(NC2CCN(Cc3cccnc3)CC2)nc2ccsc12,IIIB,NNRTI-resistant (RT E138K),MTT,0.00659 µM
COc1cc(Cc2cnc(/N=C3\C(=O)N(CN4CCN(c5cccc(C(F)(F)F)c5)CC4)c4ccc(C)cc43)nc2N)cc(OC)c1OC,,,cytopathic effect,>106.2 µM
O=C1NC(=S)N[C@@H]1Cc1ccccc1,,,cytopathic effect / XTT,>10 µg/mL
Cc1cc(C)cc(C(=O)c2cc(Cl)ccc2OCC(=O)Nc2ccc(S(N)(=O)=O)cc2C)c1,Nevirapine-resistant (RT Y181C),RT-Y181C,cytopathic effect / propidium iodide,<0.01 µM
C[C@]1(CO)O[C@@H](n2ccc(=O)[nH]c2=O)[C@H](O)[C@@H]1O,IIIB,,,>100 µM
Cc1cn([C@@H]2O[C@H](CO)[C@](O)(C(F)(F)F)[C@H]2O)c(=O)[nH]c1=O,,,,>100 µM
Cc1cc(/C=C/C#N)cc(C)c1Oc1nc(NC2CCN(Cc3ccccc3F)CC2)nc2ccsc12,IIIB,NNRTI-resistant (RT E138K),MTT,0.0335 µM
O=C(NCCc1ccccc1)Nc1nc(-c2ccc(Cl)cc2)cs1,,,cytopathic effect / XTT,>100 µg/mL
CC(C)CN(C[C@@H](O)[C@H](Cc1ccccc1)NC(=O)O[C@H]1CO[C@H]2OCC[C@H]21)S(=O)(=O)c1ccc2c(c1)OCO2,NL4-3 (RTV5),M46I V82F I84V,p24,0.0025 µM
CCc1c(Cc2cc(C)cc(C)c2)n(COCC#Cc2ccc(N)cc2)c(=O)[nH]c1=O,IIIB,K103N + Y181C,MTT,2.4 µM
C[C@H]1C/C=C/[C@H]2[C@@H]3O[C@]3(C)[C@@H](C)C3[C@H](Cc4c[nH]c5ccccc45)NC(=O)[C@]32c2ccc([nH]2)C(=O)[C@@H](C)C1,LAI,,p24 / ELISA / antigen,0.31 µM
CCc1c(Cc2ccccc2C)n(COCC#Cc2ccc(N)cc2)c(=O)[nH]c1=O,IIIB,EFV-resistant (K103R V179D P225H),MTT,>39 µM
C[C@]12CCC3C(CC=C4CC(O)CC[C@@]43C)C1CCC2C1=NN(C(N)=S)C(c2ccc(Br)cc2)C1,IIIB,,MTT,>11.78 µM
O=C(COc1ccc(Cl)cc1C(=O)c1nccs1)Nc1ccc2[nH]ncc2c1,Nevirapine-resistant (RT Y181C),RT-Y181C,cytopathic effect / propidium iodide,0.101–1 µM
C/C1=C\[C@@H](C)C/C=C/[C@H]2C=C(CO)[C@@H](C)C3[C@H](Cc4c[nH]c5ccccc45)NC(=O)[C@]32c2ccc([nH]2)C1=O,LAI,,p24 / ELISA / antigen,0.48 µM
O=C(/C=C/c1ccc(O)c(O)c1)Nc1ccc(S(=O)(=O)Nc2cccc(Cl)c2F)cc1,,,,19 µM
O=C(NCCc1ccccc1)Nc1nc2ccccc2s1,,,RT activity,<1 µg/mL

A second listing of 5 rows from above:

| SMILES | strain or isolate | mutations | read by | result |
|---|---|---|---|---|
| C[C@]12CCC3C(CC=C4CC(O)CC[C@@]43C)C1CCC2C1=NN(C(N)=S)C(c2ccc(Br)cc2)C1 | IIIB |  | MTT | >11.78 µM |
| C[C@]12CCC3C(CC=C4CC(O)CC[C@@]43C)C1CCC2C(=O)/C=C/c1ccc(/C=C/C(=O)C2CCC3CCC4C(CC=C5C[C@@H](O)CC[C@@]54C)[C@]32C)cc1 | IIIB |  | MTT | >47.75 µM |
| Cc1cc(/C=C/C#N)cc(C)c1Oc1nc(NC2CCN(Cc3ccc(F)cc3)CC2)nc2ccsc12 | IIIB | NNRTI-resistant (RT K103N) | MTT | 0.00638 µM |
| COc1cc(Cc2cnc(/N=C3\C(=O)N(CN4CCCCC4)c4ccc(C)cc43)nc2N)cc(OC)c1OC |  |  | cytopathic effect | >124.6 µM |
| O=C(/C=C/c1ccc(O)c(O)c1)Nc1ccc(S(=O)(=O)Nc2cccc(Cl)c2F)cc1 |  |  |  | 19 µM |